Data from paper PMC8481291 (Nature Communications, 2021).

What was measured:
[1] = biological target: tES–F116H(+) (Archaeoglobus fulgidus)
[2] = biological target: tES–F116H(+/–) (Archaeoglobus fulgidus)
[3] = biological target: the molecule itself

Row | Molecule | stoichiometry N (Omp2a per tES shell) [1] | stoichiometry N (Omp2a per tES shell) [2] | stoichiometry N [3]
1 | Omp2a (from UniProt Q7CNU3 23-367) | 1 | 1 | 
2 | Omp2a (natural protein) ADAIVAPEPEAVEYVRVCDAYGAGYFYIPGTETCLRVHGYVRYDVKGGDDVYSGTDRNGWDKGARFALMFNTNSETELGTLGTYTQLRFNYTSNNSRHDGQYGDFSDDRDVADGGVSTGTDLQFAYITLGGFKVGIDESEFHTFTGYLGDVINDDVVAAGSYRTGKIAYTFTGGNGFSAVIALEQGGEDVDNDYTIDGYMPHVVGGLKYAGGWGSIAGVVAYDSVIEEWATKVRGDVNITDRFSVWLQGAYSSAATPNQNYGQWGGDWAVWGGAKFIAPEKATFNLQAAHDDWGKTAVTANVAYQLVPGFTITPEVSYTKFGGEWKDTVAEDNAWGGIVRFQRSF |  |  | 3
